Anti-infective test results gathered from many reports (values: NIAID ChemDB through PubChem).

Common to all: growth or infection tests; organism: Cryptococcus neoformans; measure: MIC

Neighbouring rows are from separate reports.

O=c1cc(-c2ccccc2)oc2c1ccc1sccc12 ; result: 25 µg/mL
COc1ccccc1/C=C1\COc2ccccc2C1=O ; strain: Farwania ; result: 25 µg/mL
COc1cc2ccnc3c2c(c1OC(=O)c1ccc(C)cc1)N(C)C=C3 ; result: 20 µg/mL
Cc1ccc(/C=C2\COc3ccccc3C2=O)cc1 ; strain: 25 ; result: 12.5 µg/mL
C[C@@H](SC1COC(/C=C/C=C/c2ccc(C#N)cc2F)OC1)[C@](O)(Cn1cncn1)c1ccc(F)cc1F ; strain: TIMM0362 ; result: ≤0.008 µg/mL
O=C1/C(=C/c2ccccc2O)COc2ccccc21 ; strain: 25 ; result: 12.5 µg/mL
COc1ccc(-c2c(C#N)c(OC)nc3c2CSc2ccc(Cl)cc2-3)cc1O ; strain: 93/V ; result: 50 µg/mL
CCn1c2c(c3ccccc31)C(=O)c1ncc(C)cc1C2=O ; result: >200 µg/mL
COc1cc(O)c2c(c1)C(=O)c1c(cc3c(c1O)-c1c(cc(C)c(C(=O)NC(CO)C(=O)O)c1O)[C@H](OC1OC(C)C(O)C(OC4OCC(O)C(O)C4O)C1O)C3O)C2=O ; strain: D49 ; result: 3.1 µg/mL
COc1nc2c(c(-c3ccc4c(c3)OCO4)c1C#N)CSc1ccccc1-2 ; strain: 25 ; result: 3 µg/mL
CCCCC(Cn1ccnc1)c1ccc(Br)cc1Br ; result: <1 µg/mL
CNC1C(C)OC(O[C@H]2c3cc(C)c(C(=O)N[C@H](C)C(=O)N[C@@H](CC(=O)O)C(=O)O)c(O)c3-c3c(cc4c(c3O)C(=O)c3cc(OC)cc(O)c3C4=O)[C@@H]2O)C(O)C1OC1OCC(O)C(O)C1O ; strain: IAM 4514 ; result: >100 µg/mL
Clc1ccc(COC(Cn2ccnc2)c2ccc(Cl)cc2Cl)c(Cl)c1 ; result: 0.9 µM
COC(=O)c1c(N)oc2c(C)c(C)c(O)c(Sc3cccc(C)c3)c12 ; strain: KCCM 50564 ; method: broth dilution ; result: 6.3 µg/mL
COc1ccc(C2C(C#N)=C(N)OC3=C2CSc2ccccc23)cc1OC ; strain: Farwania ; result: 12.5 µg/mL
OC(c1cc(-c2ccccc2)nc2c(Cl)cc(Cl)cc12)C1CCCCN1 ; strain: ATCC 90013 ; result: 1.5 µg/mL
CSC1NN=C(c2sc(C)nc2C)N1C1C2CC3CC(C2)CC1C3 ; strain: PLM 589 ; result: 0.53 µg/mL
OCC1c2ccccc2SC1c1cc(Br)ccc1O ; strain: 93/V ; result: 50 µg/mL
CC(=O)C1CCc2c(ccn2C)C1=O ; result: 50 µg/mL
CCn1nc(-c2cc(C)on2)c(N=O)c1C ; result: 3.1 µM
C=C1C(=O)OCC1COC(=O)CCCC(C)C ; strain: ATCC90112 ; result: 12.5 µg/mL
N#CC1=C(c2ccccc2)C2=C(NC1O)c1ccccc1SC2 ; strain: 25 ; result: 25 µg/mL
COc1ccc(-c2oc3c(ccc4sccc43)c(=O)c2O)cc1 ; result: 50 µg/mL
CCCCc1ccc(C(=O)Oc2c(OC)cc3ccnc4c3c2N(C)C=C4)cc1 ; result: 2.5 µg/mL
CCCCCOc1ccc(-c2ccc(-c3ccc(C(=O)N[C@H]4C[C@@H](O)[C@@H](O)NC(=O)[C@@H]5[C@@H](O)[C@@H](C)CN5C(=O)[C@H]([C@H](C)O)NC(=O)[C@H]([C@H](O)[C@@H](O)c5ccc(O)cc5)NC(=O)[C@@H]5C[C@@H](O)CN5C(=O)[C@H]([C@H](C)O)NC4=O)cc3)cc2)cc1 ; strain: 1041.007 ; result: >2 µg/mL
CC(C)CC(Cn1ccnc1)c1ccc(Cl)cc1Cl ; result: <1 µg/mL
CNC(NC)c1ccc2cc(-n3cc(CCCO)nn3)c(=O)oc2c1 ; strain: ATCC 28957 ; method: broth dilution ; result: >750 µg/mL
CCCCCCCCCCCCC/C=C\C1=NC1C(=O)OC ; strain: var. grubii ; result: 1–2 µg/mL
C=C[C@@H]1C(=C)CC[C@H]2[C@H]1C[C@H]1OC(=O)[C@@]3(C)[C@@H](O)CC[C@@]2(C)[C@@]13O ; result: 0.25 µg/mL
CCCCCC(=O)O[C@H]1[C@H](OC(=O)CCCCC)[C@H](OCC23C4C=C(C(C)C)C2(C(=O)O)C(C=O)(C4)[C@@H]2CC[C@@H](C)[C@H]23)O[C@H](C)[C@H]1OC ; strain: 2867 ; result: >125 µg/mL
CCCCC(Cn1ccnc1)c1ccc(Br)cc1 ; result: <1 µg/mL
COc1cccc(-c2sc3ccccc3c2CO)c1O ; strain: Farwania ; result: 50 µg/mL
COC(=O)c1c(N)oc2cc(C)c(O)cc12 ; strain: KCCM 50564 ; method: broth dilution ; result: 6.3 µg/mL
CCC(C)CC(C)CCCCCCCCC(=O)N[C@H]1C[C@@H](O)[C@H](NCCN)NC(=O)[C@@H]2[C@@H](O)CCN2C(=O)[C@H]([C@H](O)CCN)NC(=O)[C@H]([C@H](O)[C@@H](O)c2ccc(O)cc2)NC(=O)[C@@H]2C[C@@H](O)CN2C(=O)[C@H]([C@@H](C)O)NC1=O ; strain: 19 isolates ; result: 0.25–1 µg/mL
Cn1ccc2c3oc(-c4ccccc4)cc(=O)c3ccc21 ; result: 12.5 µg/mL
COc1ccc2c(c1)C1=C(CS2)C(c2ccc3c(c2)OCO3)C(C#N)=C(N)O1 ; strain: 93/V ; result: 6 µg/mL
CCc1ccc(C(=O)Oc2c(OC)cc3ccnc4c3c2N(C)C=C4)cc1 ; result: 10 µg/mL
CCn1nc(C)c([N+](=O)[O-])c1-c1cc(C)on1 ; result: >200 µM
COc1ccc(/C=C2\CSc3ccc(Cl)cc3C2=O)cc1OC ; strain: Farwania ; result: 6 µg/mL
COc1ccccc1C1C(C#N)=C(N)OC2=C1CSc1ccccc12 ; strain: 93/V ; result: 12.5 µg/mL
CCCCCCCCCCCCC/C=C/C1=N[C@H]1C(=O)OC ; strain: var. grubii ; result: 4 µg/mL
COc1ccc(C(=O)CC(=O)c2ccc3c(ccn3C)c2OC)cc1 ; result: 25 µg/mL
CCCOc1nc2c(c(-c3ccc4c(c3)OCO4)c1C#N)CSc1ccc(Cl)cc1-2 ; strain: 25 ; result: 25 µg/mL
Nc1[nH]c(=O)ncc1F ; strain: H79 ; result: 0.25 µg/mL
CCCCC(Cn1ccnc1)c1c(Cl)cccc1Cl ; result: <1 µg/mL
CO[C@H]1[C@@H](O)[C@H](O)[C@H](OC[C@@]23C[C@@H]4[C@H](C)CC[C@H]4[C@@]4(C=O)C[C@@H]2C=C(C(C)C)[C@@]34C(=O)O)O[C@@H]1C ; strain: ATCC66031 ; result: >100 µg/mL
CCCCCCC(Cn1ccnc1)c1ccc(F)cc1 ; result: <10 µg/mL
CCOC(=O)[C@@H](C)NC(=O)c1c(C)cc2c(c1O)-c1c(cc3c(c1O)C(=O)c1cc(OC)cc(O)c1C3=O)[C@H](O)[C@H]2O[C@@H]1O[C@H](C)[C@H](NC)[C@H](O[C@@H]2OC[C@@H](O)[C@H](O)[C@H]2O)[C@H]1O ; strain: IAM 4514 ; result: 12.5 µg/mL
Cc1nnsc1-c1n[nH]c(=S)n1C1C2CC3CC(C2)CC1C3 ; strain: PLM 589 ; result: 12.5 µg/mL
CCCCCCCC(Cn1ccnc1)c1ccccc1Br ; result: <1 µg/mL
CCCCNC(=S)NNC(=O)c1sc(C)nc1C ; strain: PLM 589 ; result: 3.12 µg/mL
Brc1ccc2[nH]c3c4ccccc4nnc3c2c1 ; result: >200 µM
COc1ccc(C2Sc3ccccc3C2CO)c(O)c1 ; strain: 93/V ; result: 100 µg/mL
c1ccc2c(c1)nnc1c3ccccc3[nH]c21 ; result: 0.8 µM
COC(=O)C1OC2(CCCC(OC(C)=O)C(C)C/C=C/c3ccccc3)OC(C(=O)O)(C(OC(=O)CCCCCC/C=C/c3ccccc3)C2O)C1(O)C(=O)O ; strain: 58063 ; result: 25 µg/mL
CCCn1nc(-c2cc(C)on2)c(N=O)c1C ; result: 2.4 µM
Clc1ccc2[nH]c3c4ccccc4nnc3c2c1 ; result: >200 µM
Cc1nnsc1C(=O)NNC(=S)Nc1ccc2ccccc2c1 ; strain: PLM 589 ; result: 12.5 µg/mL
CNOC(=O)[C@@H](C)NC(=O)c1c(C)cc2c(c1O)-c1c(cc3c(c1O)C(=O)c1cc(OC)cc(O)c1C3=O)[C@H](O)[C@H]2OC1OC(C)C(NC)C(OC2OCC(O)C(O)C2O)C1O ; strain: IAM 4514 ; result: 1.6 µg/mL
OC(c1cc(-c2ccc(-c3ccccc3)cc2)nc2ccccc12)C1CCCCN1 ; strain: ATCC90112 ; result: 1.5 µg/mL
CNC1C(C)OC(O[C@H]2c3cc(C)c(C(=O)N[C@H](C)C(=O)OCOC(=O)C(C)(C)C)c(O)c3-c3c(cc4c(c3O)C(=O)c3cc(OC)cc(O)c3C4=O)[C@@H]2O)C(O)C1OC1OCC(O)C(O)C1O ; strain: IAM 4514 ; result: 6.3 µg/mL
CCCCN1C(c2sc(C)nc2C)=NNC1SC ; strain: PLM 589 ; result: 6.25 µg/mL
CCCCCCCCCCCCCCCC1=N[C@H]1C(=O)OC ; strain: var. grubii ; result: 2 µg/mL
CC(C)=C[C@H]1C[C@](C)(O)C2C3CCC4[C@@]5(C)CCC[C@](C)(O[C@H]6OC[C@H](O)[C@H](OC7O[C@H](CO)[C@@H](O)[C@H](O)[C@H]7OC(=O)/C=C/c7ccc(OC(=O)CC(=O)O)cc7)[C@H]6O[C@H]6C[C@H](CO)[C@@H](O)[C@@H]6O)C5CC[C@@]4(C)[C@@]34CO[C@@]2(C4)O1 ; result: >50 µg/mL
CCC(C)n1ncn(-c2ccc(N3CCN(c4ccc(OC[C@H]5CO[C@](Cn6cncn6)(c6ccc(Cl)cc6Cl)O5)cc4)CC3)cc2)c1=O ; strain: DUMC136.89 ; result: 0.008 µg/mL
COc1cc2ccnc3c2c(c1OC(=O)c1ccc(C(C)(C)C)cc1)N(C)C=C3 ; result: 2.5 µg/mL
Cc1nc(C)c(-c2n[nH]c(=S)n2-c2ccc3ccccc3c2)s1 ; strain: PLM 589 ; result: 3.12 µg/mL
COC(=O)[C@@H]1N=C1/C=C\CCCCCCCCCCCCC(C)(C)C ; strain: var. gatti ; result: >64 µg/mL
COc1ccc(-c2c(C#N)c(OC)nc3c2CSc2ccccc2-3)cc1OC ; strain: 25 ; result: 6 µg/mL
CCCCCCCC(Cn1ccnc1)c1ccc(Cl)cc1Cl ; result: <1 µg/mL
CCCCC[C@@H]1OCO[C@@]2(C)/C=C(C)/C=C/C(=O)O[C@H]([C@@H](C)[C@@H](O)[C@H](C)[C@@]3(O)C[C@@H](O[C@H]4C[C@@H](O)[C@H](O)[C@@H](C)O4)[C@H](C)[C@@H](C)O3)[C@@H](OC)/C=C/C=C(\C)C[C@H]1[C@@H]2O ; strain: F-10 ; result: 0.39 µg/mL
N#CC1=C(N)OC2=C(CSc3ccccc32)C1c1ccc(-c2ccccc2)cc1 ; strain: 25 ; result: 25 µg/mL
COc1ccc(CS(=O)(=O)C2NN=C(c3sc(C)nc3C)N2C2C3CC4CC(C3)CC2C4)cc1 ; strain: PLM 589 ; result: 25 µg/mL
Cc1cc(-c2cc(C)on2)n(CCO)n1 ; result: >200 µM

For reference, 5 entries again:

SMILES	strain	method	result
CCCCCCCCCCCCC/C=C/C1=N[C@H]1C(=O)OC	var. grubii		4 µg/mL
CCc1ccc(C(=O)Oc2c(OC)cc3ccnc4c3c2N(C)C=C4)cc1			10 µg/mL
OC(c1cc(-c2ccccc2)nc2c(Cl)cc(Cl)cc12)C1CCCCN1	ATCC 90013		1.5 µg/mL
Cc1cc(-c2cc(C)on2)n(CCO)n1			>200 µM
COc1ccc(C2Sc3ccccc3C2CO)c(O)c1	93/V		100 µg/mL

a–b is a range or a potency band. Blank or dashed fields: not listed here.